*1 amine or outer side, *2 acyl side, *3 side chain or, on linkers, in order; H or OH if unused. Where a SMILES comes first, the peptide text is derived from it. Bridges are numbered along the chain shown (N, C = ends). Where no end group is shown, it is not given here. [ ]: non-standard residue; d: D form. X1 = O=C([C@H](CCCCNCC=[*:3])N[*:1])[*:2]
Test: Circular dichroism (CD) spectra assay
Format: physicochemical
Conditions: PBS with 100 mM SDS, peptide 0.1 mg/mL, 190–260 nm, 25°C

Molecule	α‐helix [%]
CC[C@H](C)[C@H](NC(=O)[C@@H](N)CCCNC(=N)N)C(=O)N[C@@H](CC(C)C)C(=O)N[C@@H](CCCNC(=N)N)C(=O)N[C@@H](CCCCN)C(=O)N[C@@H](CC(C)C)C(=O)N[C@@H](CCCNC(=N)N)C(=O)N[C@H]1CCCCNC/C=C/CNCCCC[C@@H](C(=O)O)NC(=O)[C@H](CC(C)C)NC(=O)[C@H](Cc2ccccc2)NC(=O)[C@H](CCCCN)NC1=O [GAN‐P2‐2‐St] (H-RILRKLR[X1]KFL[X1]-OH; staple (E) 8-12)	75
RILRKLRKKFLK [GAN‐P2‐2]	58
RILRKLKKRFLK [GAN‐P2‐3]	75
WKRIARKLKRKLGRAKLF [VAE‐P3‐5]	76
CC[C@H](C)[C@H](NC(=O)[C@H](CCCNC(=N)N)NC(=O)[C@H](CCCCN)NC(=O)[C@@H](N)Cc1c[nH]c2ccccc12)C(=O)N[C@@H](C)C(=O)N[C@H]1CCCCNC/C=C/CNCCCC[C@@H](C(=O)N[C@@H](CCCCN)C(=O)N[C@@H](CC(C)C)C(=O)NCC(=O)N[C@@H](CCCNC(=N)N)C(=O)N[C@@H](C)C(=O)N[C@@H](CCCCN)C(=O)N[C@@H](CC(C)C)C(=O)N[C@@H](Cc2ccccc2)C(=O)O)NC(=O)[C@H](CCCCN)NC(=O)[C@H](CC(C)C)NC(=O)[C@H](CCCNC(=N)N)NC1=O [VAE‐P3‐3‐St] (H-WKRIA[X1]RLK[X1]KLGRAKLF-OH; staple (E) 6-10)	80
CC[C@H](C)[C@H](NC(=O)[C@@H](N)CCCNC(=N)N)C(=O)N[C@@H](CC(C)C)C(=O)N[C@@H](CCCNC(=N)N)C(=O)N[C@@H](CCCCN)C(=O)N[C@@H](CC(C)C)C(=O)N[C@@H](CCCCN)C(=O)N[C@H]1CCCCNC/C=C/CNCCCC[C@@H](C(=O)O)NC(=O)[C@H](CC(C)C)NC(=O)[C@H](Cc2ccccc2)NC(=O)[C@H](CCCNC(=N)N)NC1=O [GAN‐P2‐3‐St] (H-RILRKLK[X1]RFL[X1]-OH; staple (E) 8-12)	75
CC[C@H](C)[C@H](NC(=O)[C@H](CCCNC(=N)N)NC(=O)[C@H](CCCCN)NC(=O)[C@@H](N)Cc1c[nH]c2ccccc12)C(=O)N[C@@H](C)C(=O)N[C@@H](CCCNC(=N)N)C(=O)N[C@H]1CCCCNC/C=C/CNCCCC[C@@H](C(=O)N[C@@H](CC(C)C)C(=O)NCC(=O)N[C@@H](CCCNC(=N)N)C(=O)N[C@@H](C)C(=O)N[C@@H](CCCCN)C(=O)N[C@@H](CC(C)C)C(=O)N[C@@H](Cc2ccccc2)C(=O)O)NC(=O)[C@H](CCCNC(=N)N)NC(=O)[C@H](CCCCN)NC(=O)[C@H](CC(C)C)NC1=O [VAE‐P3‐5‐St] (H-WKRIAR[X1]LKR[X1]LGRAKLF-OH; staple (E) 7-11)	35
RILRKLRKRFLK [GAN‐P2‐4]	35
CC[C@H](C)[C@H](NC(=O)[C@@H](N)CCCNC(=N)N)C(=O)N[C@@H](CC(C)C)C(=O)N[C@@H](CCCNC(=N)N)C(=O)N[C@@H](CCCCN)C(=O)N[C@@H](CC(C)C)C(=O)N[C@@H](CCCNC(=N)N)C(=O)N[C@H]1CCCCNC/C=C/CNCCCC[C@@H](C(=O)O)NC(=O)[C@H](CC(C)C)NC(=O)[C@H](Cc2ccccc2)NC(=O)[C@H](CCCNC(=N)N)NC1=O [GAN‐P2‐4‐St] (H-RILRKLR[X1]RFL[X1]-OH; staple (E) 8-12)	34
WKRIAKRLKKKLGRAKLF [VAE‐P3‐3]	35
